# Laboratory results from patent publication US11279734B2, “Solution-phase affinity selection of inhibitors from combinatorial peptide libraries” (Massachusetts Institute of Technology, priority 2017, dated 2022).
# Biological target: SUMO-C-CA (HIV-1 C-terminal capsid domain) (Human immunodeficiency virus type 1 group M subtype B, UniProt P04591, A340G)
# Conditions: biotinylated peptides, BLI
substance,measurement,value
IT(F2f)(S5)D(Cba)L(S5)YYGP [peptide 30a-M],binding to C-CA (in words),higher affinity than the reference bioactive NYAD peptide (37a-M)
IT(F2f)ED(Cba)LHYYGP [peptide 30a],binding to C-CA (in words),nanomolar peptide binder to C-CA
